Data taken from article PMC11653257, “Organometallic Half-Sandwich Complexes of 8-Hydroxyquinoline-Derived Mannich Bases with Enhanced Solubility: Targeting Multidrug Resistant Cancer” (Inorganic Chemistry, 2024).

Tests used:
Conditions in all cases: pH 7.4 (PBS’), waiting time 24 h
[1] = Adduct formation with HSA binding model FHA (UV–vis)
[2] = Adduct formation with HSA binding model MIM (UV–vis)
[3] = Adduct formation with HSA binding model AHA (UV–vis)

## [RuCym(HQCl-Pyr)Cl]Cl [(2)]
[1]
  logK’(FHA): 5.31 ± 0.01
[2]
  logK’(MIM): 5.85 ± 0.03
[3]
  logK’(AHA): 5.39 ± 0.02

## [RuCym(HQCl-Pip)Cl]Cl [(4)]
[1]
  logK’(FHA): 5.38 ± 0.04
[2]
  logK’(MIM): 5.86 ± 0.07
[3]
  logK’(AHA): 5.37 ± 0.02

## Cc1c(C)c(C)[c-](C)c1C.[Cl-].[Cl-].[O-]c1c(C[NH+]2CCCC2)cc(Cl)c2cccnc12.[Rh+3] [(1), [RhCp*(HQCl-Pyr)Cl]Cl]
[1]
  logK’(FHA): 4.52 ± 0.02
[2]
  logK’(MIM): 4.50 ± 0.07
[3]
  logK’(AHA): 4.30 ± 0.01

## [RhCp*(HQCl-Pip)Cl]Cl [(3)]
[1]
  logK’(FHA): 4.52 ± 0.01
[2]
  logK’(MIM): 4.48 ± 0.12
[3]
  logK’(AHA): 4.13 ± 0.01
